A mixed list of measured activities; the numbers were collected in NIAID ChemDB.

All rows: cytotoxicity tests; cell line: MT-4; measure: CC50

Lines come from different laboratories, so protocols vary.

{"smiles": "Cc1cn(C2CC(N=[N+]=[N-])C(COC(=O)c3cn(C4CC4)c4c(F)c(N5CC(C)N(C(=O)OCc6ccccc6)C(C)C5NC(=O)OCc5ccccc5)c(F)cc4c3=O)O2)c(=O)[nH]c1=O", "read by": "MTT", "result": "34.05 µM"}
{"smiles": "COc1cc(O)ccc1C(=O)CC(=O)c1ccc(O)cc1", "result": "12 µg/mL"}
{"smiles": "Cc1cc(/C=C/C#N)ccc1Oc1ccnc(Nc2ccc(C#N)cc2)n1", "result": "99.8 µM"}
{"smiles": "COc1ccc(CCNc2nc(NC(=S)Nc3ccccc3Cl)nc(Oc3cc(=O)oc4ccccc34)n2)cc1OC", "read by": "MTT", "result": "13.75 µg/mL"}
{"smiles": "CCCCCCCCCCCC(=O)O[C@@]12C[C@@H](C)[C@]34C=C(C)[C@H](O)[C@@]3(O)[C@H](O)C(COC(=O)C(C)(C)C)=C[C@H](C4=O)[C@@H]1C2(C)C", "read by": "MTT", "result": "2.24 µg/mL"}
{"smiles": "COc1ccc(CN[C@@H](C(=O)N[C@H]2c3ccccc3C[C@H]2O)[C@H](O)[C@H](Cc2ccccc2)NC(=O)[C@@H](NC(=O)OCc2ccccc2)C(C)(C)C)cc1", "result": "17.4 µM"}
{"smiles": "CCCCN(C)C(=O)Oc1nsnc1-c1c(Cl)cccc1Cl", "result": "22.5 µM"}
{"smiles": "CCCCCC(=O)O[C@@]12[C@H](OC(C)=O)[C@@H](C)[C@@]3(O)[C@@H](C=C(CO)C[C@]4(O)C(=O)C(C)=C[C@@H]34)[C@@H]1C2(C)C", "result": ">62.5 µg/mL"}
{"smiles": "CCCN(C)C(=O)Oc1nsnc1-c1c(Cl)cccc1Cl", "result": "28.5 µM"}
{"smiles": "Nc1ccn([C@H]2CO[C@@H](CO)O2)c(=O)n1", "result": "10 µg/mL"}
{"smiles": "CN(C)C=C1c2nnc(-c3ccccc3)n2-c2ccccc2-n2c1nnc2-c1ccccc1", "read by": "MTT", "result": "133 µM"}
{"smiles": "Cc1cn([C@@H]2C[C@@H](N=[N+]=[N-])[C@H](COP(N)(=O)OC[C@H]3O[C@@H](n4cc(C)c(=O)[nH]c4=O)C[C@@H]3N=[N+]=[N-])O2)c(=O)[nH]c1=O", "result": ">100 µM"}
{"smiles": "CC(C)=CCc1cc(-c2cc(=O)c3c(O)c(CC=C(C)C)c(O)cc3o2)ccc1O", "result": "6 µg/mL"}
{"smiles": "COC(=O)c1nn(COC(CO)CO)cc1I", "result": ">300 µM"}
{"smiles": "COc1c(N2CCN(C(=O)OCc3ccccc3)C(C)C2)c(F)cc2c(=O)c(C(=O)OCC3OC(n4cc(C)c(=O)[nH]c4=O)CC3N=[N+]=[N-])cn(C3CC3)c12", "read by": "MTT", "result": "27.27 µM"}
{"smiles": "COc1ccc(CCNc2nc(NC(=S)Nc3ccc(C)cc3)nc(Oc3cc(=O)oc4ccccc34)n2)cc1OC", "read by": "MTT", "result": "53.66 µg/mL"}
{"smiles": "C1CNCCNCCCN(CCCN2CCCNCCNCCCNCC2)CCNC1", "result": ">250 µg/mL"}
{"smiles": "O=C(CCC(=O)N1CCN(CCNC(=S)Nc2ccc(Br)cn2)CC1)NCC(=O)OCC#Cc1cn([C@H]2CC[C@@H](CO)O2)c(=O)[nH]c1=O", "read by": "MTT", "result": ">10 µM"}
{"smiles": "CC1c2nnc(Cc3ccccc3)n2-c2ccccc2-n2c(Cc3ccccc3)nnc21", "read by": "MTT", "result": ">200 µM"}
{"smiles": "Cc1cn([C@H]2C[C@H](N=[N+]=[N-])[C@@H](CO)O2)c(=O)[nH]c1=O", "read by": "WST", "result": ">1 µM"}
{"smiles": "COCOc1ccc(/C=C/C(=O)c2c(O)cc(OCOC)cc2OCOC)c(OCOC)c1", "result": "19 µg/mL"}
{"smiles": "CCN(C)C(=O)Oc1nsnc1-c1c(Cl)cccc1Cl", "result": "29 µM"}
{"smiles": "O=c1ccn([C@H]2C[C@H](F)[C@@H](CO)O2)c(=O)[nH]1", "result": "75 µM"}
{"smiles": "CCCCCCCCCCCC(=O)O[C@@]12C[C@@H](C)[C@]34C=C(C)[C@H](O)[C@@]3(O)[C@H](O)C(COC(=O)c3ccccc3)=C[C@H](C4=O)[C@@H]1C2(C)C", "read by": "MTT", "result": "6.2 µg/mL"}
{"smiles": "Nc1ccn([C@H]2CC[C@@H](CO)O2)c(=O)n1", "read by": "MTT", "result": "1.6 µg/mL"}
{"smiles": "CC(C)=CCc1c(-c2ccc(O)cc2O)oc2cc(O)cc(O)c2c1=O", "result": "6.9 µg/mL"}
{"smiles": "CCc1nnc2n1-c1ccccc1-n1c(CC)nnc1C2C", "read by": "MTT", "result": ">200 µM"}
{"smiles": "COC(=O)c1nn([C@H]2CC[C@@H](CO)O2)cc1I", "result": ">300 µM"}
{"smiles": "Cc1cc(C#N)cc(C)c1Oc1nc(Nc2ccc(C#N)cc2)nc(N)c1Br", "result": "99.69 µM"}
{"smiles": "Cc1cn([C@H]2C[C@H](N=[N+]=[N-])[C@@H](CO)O2)c(=O)[nH]c1=O", "result": "3.2 µg/mL"}
{"smiles": "Cc1ccnc2c1NC(=O)c1cccnc1N2C1CC1", "read by": "MTT", "result": ">4 µg/mL"}
{"smiles": "Cc1cn(C2CC(N=[N+]=[N-])C(COC(=O)c3cn4c5c(c(N6CCN(C)CC6)c(F)cc5c3=O)OCC4C)O2)c(=O)[nH]c1=O", "read by": "MTT", "result": "105 µM"}
{"smiles": "O=c1[nH]cnc2c1ncn2[C@H]1CC[C@@H](CO)O1", "result": ">125 µg/mL"}
{"smiles": "COc1c2c(cc3c1CCC(C)(C)O3)OC[C@@H](c1ccc(O)c(CC=C(C)C)c1O)C2", "result": ">10 µg/mL"}
{"smiles": "CC(C)=CCN1Cc2cc(Cl)cc3[nH]c(=S)n(c23)C[C@@H]1C", "read by": "MTT", "result": "29 µg/mL"}
{"smiles": "Cc1cn([C@H]2C[C@H](N=[N+]=[N-])[C@@H](CO)O2)c(=O)[nH]c1=O", "result": "75 µM"}
{"smiles": "CCCCNC(=O)Oc1nsnc1-c1c(Cl)cccc1Cl", "result": "129 µM"}
{"smiles": "C1CNCCNCCCNCCNC1.[Cl-].[O]=[V+2]", "read by": "MTT", "result": ">360 µM"}
{"smiles": "CCCCCCCCCCCCCC(=O)O[C@@H]1[C@@H](C)[C@@]2(O)[C@@H](C=C(CO)C[C@]3(O)C(=O)C(C)=C[C@@H]23)[C@@H]2C(C)(C)[C@]12OC(C)=O", "result": ">31.3 µg/mL"}
{"smiles": "CN1CCN(C2c3nnc(-c4ccccc4)n3-c3ccccc3-n3c(-c4ccccc4)nnc32)CC1", "read by": "MTT", "result": "126 µM"}
{"smiles": "O=C(CCC(=O)N1CCN(CCNC(=S)Nc2ccc(Br)cn2)CC1)NCC(=O)OC[C@@H]1C=C[C@H](n2ccc(=O)[nH]c2=O)O1", "read by": "MTT", "result": ">100 µM"}
{"smiles": "CC1=C[C@H]2[C@@]3(O)[C@H](C)[C@@H](OC(=O)Cc4ccccc4)[C@]4(OC(=O)Cc5ccccc5)[C@H]([C@@H]3C=C(COC(=O)Cc3ccccc3)C[C@]2(O)C1=O)C4(C)C", "result": ">31.3 µg/mL"}
{"smiles": "CCCCCCCCCCCC(=O)O[C@@]12C[C@@H](C)[C@]34C=C(C)[C@H](OC(=O)CCCCC)[C@@]3(O)[C@H](O)C(CO)=C[C@H](C4=O)[C@@H]1C2(C)C", "read by": "MTT", "result": "6.23 µg/mL"}
{"smiles": "CC1c2nnc(-c3ccccc3)n2-c2ccccc2-n2c(-c3ccccc3)nnc21", "read by": "MTT", "result": "4 µM"}
{"smiles": "NC(=O)c1nn(COCCO)cc1I", "result": ">300 µM"}
{"smiles": "O=c1[nH]cnc2c1ncn2[C@H]1CC[C@@H](CO)O1", "read by": "MTT", "result": ">100 µg/mL"}
{"smiles": "CCCCCCCCCCCCCC(=O)OCC1=C[C@H]2[C@@H]3C(C)(C)[C@]3(OC(=O)CCCCCCCCCCCCC)[C@H](OC(C)=O)[C@@H](C)[C@]2(O)[C@@H]2C=C(C)C(=O)[C@@]2(O)C1", "result": ">125 µg/mL"}

CCn is the concentration with n% toxicity to the cells.